PubChem BioAssay AID624099 – ICCB-Longwood – 2012

Test: 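Host factors E2 relies on to silence an HPV18 LCR reporter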 (primary screen)
System: human C33A cervical carcinoma cells (HPV-negative) stably expressing BPV1 E2 and an HPV18 LCR luciferase reporter
Reagent: siRNA pool against human genes, 40 nM
Time to read-out: 72 h
Detection: 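Per-well luciferase luminescence, z-scored on each plate against the plate mean and SD with control wells left out, then averaged across three replicate plates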
Scale: mean z-score and z-score: higher = stronger reporter signal, weaker E2 silencing
Hit rule: 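Mean z ≥ 2 together with z ≥ 2 in two or more of the three replicates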
Shown is one part, drawn at random, of about 21,000 reagents. 497 of them (2.4%) count as active. 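Higher z means weaker E2 silencing; only reporter increases were scored, and knock-downs that hurt cell survival may mask genuine repressor factors.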 A number with no mark means an inactive call. The numbers tell different reagents against one gene apart.

gene knocked down,pool no.,mean z-score,"z-score, replicate A","z-score, replicate B","z-score, replicate C"
IL1R2 (interleukin 1 receptor type 2),1,1.49,1.48,1.49,1.52
"RABL3 (RAB, member of RAS oncogene family like 3)",1,0.56,0.58,0.58,0.53
TRIM55 (tripartite motif containing 55),1,0.59,0.25,1.11,0.39
AP3D1 (adaptor related protein complex 3 subunit delta 1),1,-0.47,-0.38,-0.5,-0.53
"FGD4 (FYVE, RhoGEF and PH domain containing 4)",1,-0.73,-0.8,-0.57,-0.81
ATP5F1A (ATP synthase F1 subunit alpha),1,0.03,0.11,-0.03,0.02
TP53I13 (tumor protein p53 inducible protein 13),1,0.42,0.47,0.71,0.08
SRBD1 (S1 RNA binding domain 1),1,-1.1,-1.04,-1.27,-1
ENAH (ENAH actin regulator),1,0.08,-0.02,0.05,0.22
LOC399867 (retired record),1,0.24,-0.05,-0.16,0.93
PHF21A (PHD finger protein 21A),1,0.14,0.34,0.08,-0.01
CFAP46 (cilia and flagella associated protein 46),1,-0.39,-0.44,-0.31,-0.41
CFAP46 (cilia and flagella associated protein 46),2,-0.81,-1.15,-0.78,-0.49
RNF32-DT (RNF32 divergent transcript),1,0.76,1.08,0.78,0.43
"SRC (SRC proto-oncogene, non-receptor tyrosine kinase)",1,-0.69,-0.52,-0.78,-0.78
POP4 (POP4 ribonuclease P/MRP subunit),1,0.52,0.37,0.39,0.8
MTRF1 (mitochondrial translation release factor 1),1,-0.68,-0.98,-0.69,-0.37
ADGRL4 (adhesion G protein-coupled receptor L4),1,-1.22,-1.41,-1.16,-1.1
CA4 (carbonic anhydrase 4),1,0.1,-0.08,0.1,0.27
PDE4D (phosphodiesterase 4D),1,-0.8,-1.11,-0.82,-0.45
GLI4 (GLI family zinc finger 4),1,-0.9,-0.85,-1.2,-0.64
RPL35 (ribosomal protein L35),1,-1.77,-1.55,-1.42,-2.35
CCDC87 (coiled-coil domain containing 87),1,-1.68,-1.7,-1.78,-1.57

Reprinted from the entries so far for reference:
gene knocked down,pool no.,mean z-score,"z-score, replicate A","z-score, replicate B","z-score, replicate C"
LOC399867 (retired record),1,0.24,-0.05,-0.16,0.93
PHF21A (PHD finger protein 21A),1,0.14,0.34,0.08,-0.01
